In US20110283604A1, “BIODEGRADATION OF RENEWABLE HYDROCARBON FUEL BLENDS” (BUTAMAX(TM) ADVANCED BIOFUELS LLC, priority 2010, published 2011):

Legend:
[1] = test system: soil-groundwater slurries; assay: Anaerobic microcosm biodegradation (nitrate-reducing to methanogenic); settings: for time to complete biodegradation: lower concentration (68 μM); for day by which concentration had decreased below the analytical detection limit: data not shown
[2] = test system: soil-groundwater slurries; assay: Aerobic microcosm biodegradation of BTEX, isobutanol and ethanol

Structure (SMILES): CCO [ethanol, reference compound]
- time to degradation below the analytical detection limit ([1]; Treatments 4 and 14, sulfate reducing conditions, ethanol 11,000 μM): approximately 60 days
- impact of alcohol on BTEX biodegradation ([2]; comparison microcosms (Treatments 4, 5 and 6), aerobic): greater adverse impacts on BTEX biodegradation than isobutanol

Structure (SMILES): CC(C)CO [isobutanol]
- time to degradation of re-spiked alcohol ([1]; Treatment 2 re-spiked to 3,400 μM at 88 days, after depletion of sulfate (methanogenic conditions)): ≤ 30 days
- time to degradation below detection limits ([1]; Treatment 6, nitrate-reducing, higher concentration (3,400 μM)): ≤ 16 days
- time to degradation below the analytical detection limit ([1]; iron-amended treatment, higher concentration): ≤ 80 days
- time to complete biodegradation ([1]; iron-amended treatment): ≤ 25 days
- time to complete biodegradation ([1]; unamended, nitrate-amended and sulfate-amended treatments): ≤ 15 days

Structure (SMILES): CC(C)C(=O)O [isobutyric acid]
- day by which concentration had decreased below the analytical detection limit ([1]; Treatment 3 (unamended, lower concentration)): ≤ 160 days
- day by which concentration had decreased below the analytical detection limit ([1]; Treatment 13 (sulfate reducing, lower concentration)): ≤ 48 days
- accumulation as biodegradation intermediate ([1]; all treatments except high concentration nitrate-amended): near (with a factor of approximately 2) stoichiometric quantities
- accumulation as biodegradation intermediate ([1]; high concentration nitrate-amended treatment): 5%
- fate in samples taken after 82 days ([2]; Treatment 3, aerobic (data not shown)): further degraded
- concentration by day 48 ([2]; Treatment 4, aerobic): 100 µM
